Results of unrelated studies side by side (data: NIAID ChemDB).

All rows: tests in culture; species: Mycobacterium tuberculosis

Conditions beyond the fields shown may differ between rows. MIC bound comes from a single tested concentration. Blank or dashed fields: not listed here. Percent inhibition refers to the dose given; in toxicity tests it is the harm to the cells. a–b is a range or a potency band. MIC50, MIC90 and the like: level of inhibition, or share of isolates inhibited. ECn is the concentration giving n% inhibition of infection, replication or growth.

SMILES,conditions,cell line,method,strain,dose,endpoint,value
O=C(c1ccncc1)N(NCc1cccc(Cl)c1)C(=O)c1cnccn1,-,-,-,9 isolates (resistant),-,MIC,8–16 µg/mL
Cc1ccc2oc(=O)n(-c3ccc(Cl)c(Cl)c3)c(=S)c2c1,21 d,-,-,My 331/88,-,MIC,0.5 µM
Cc1cccc(C(=O)Nc2nnc(COc3ccc4c(C)cc(=O)oc4c3)o2)c1,-,-,resazurin,H37Rv,-,EC50,65.2 µg/mL
Nc1nc2ncn(O)c2c(=O)[nH]1,-,-,BACTEC,H37Rv,12.5 µg/mL,inhibition,6%
CC(=O)C(CC(=O)Nc1ccc(Cl)cc1)C(=O)Nc1cccc2ccccc12,-,-,-,H37Rv,30 µg/mL,inhibition,0%
Cc1ccc(C2=C/C(=C/c3cc4ccccc4nc3Cl)C(=O)O2)cc1,-,-,resazurin,H37Rv,-,EC50,>100 µg/mL
CCCCN1CCN(c2nc(=O)c3cc(C(F)(F)F)cc(C(=O)O)c3s2)CC1,-,-,resazurin,H37Rv,-,MIC,0.0019 µg/mL
CC1N=C(N)NC(c2ccc([N+](=O)[O-])cc2)=C1C(=O)Nc1ccc(S(=O)(=O)c2ccc(NC(=O)C3=C(c4ccc([N+](=O)[O-])cc4)NC(N)=NC3C)cc2)cc1,-,-,-,INH resistant,-,MIC,3.72 µM
CC[C@@H](C)[C@H](NC(=O)OCc1ccccc1)c1cnc(-c2ccc([N+](=O)[O-])cc2)[nH]1,14 d,-,-,My 331/88,-,MIC,16 µM
CN(CCN(C)C(=O)CCn1cc(F)c(=O)[nH]c1=O)C(=O)CCn1cc(F)c(=O)[nH]c1=O,-,-,resazurin,H37Rv,6.25 µg/mL,inhibition,36%
C[C@@H]1CN(c2c(F)c(N)c3c(=O)c(C(=O)O)cn(C4CC4)c3c2F)C[C@H](C)N1,-,-,-,-,-,MIC50,0.1–0.2 µg/mL
Cc1nc2scc(-c3ccco3)c2c(=O)n1/N=C/c1ccc(Cl)cc1,-,-,-,CNCTC MY331/88,-,MIC,10 µM
CCOC(=O)SCC1CS1,-,-,-,H37Rv,-,MIC,1.56 µg/mL
NC(=O)c1cnccn1,-,-,resazurin,H37Rv,-,EC50,23.62 µg/mL
Fc1ccc2oc(=S)n(-c3ccc(C(F)(F)F)cc3)c(=S)c2c1,21 d,-,-,My 331/88,-,MIC,4 µM
CCOC(=O)c1ccc(NC(=O)C(CC(=O)Nc2ccccc2)C(C)=O)cc1,-,-,-,H37Rv,5 µg/mL,inhibition,0%
CC1N=C(N)NC(c2ccccc2)=C1C(=O)Nc1ccc(S(=O)(=O)c2ccc(NC(=O)C3=C(c4ccccc4)NC(N)=NC3C)cc2)cc1,-,-,-,INH resistant,-,MIC,1.56 µM
COc1ccc(-c2cc(=O)c3c(O)cc(O)cc3o2)cc1,-,-,BACTEC,H37Rv,12.5 µg/mL,inhibition,-26%
CCCCOC(=O)SCC1CS1,-,-,-,H37Rv,-,MIC,3.125 µg/mL
Cc1nc2scc(-c3ccco3)c2c(=O)n1NC(=O)c1ccco1,-,-,-,CNCTC MY331/88,-,MIC,41 µM
CCCCCCCCCCNP(=S)(NCCCCCCCCCC)c1ccccc1,-,-,resazurin,-,6.25 µg/mL,inhibition,1%
COc1ccc(-n2c(C)nc3ccc(Cl)cc3c2=S)cc1,-,-,-,My 331/88,-,MIC,31 µg/mL
O=C(CCl)SCC1CS1,-,-,-,H37Rv,-,MIC,25 µg/mL
O=C1S/C(=C2/C(=O)N(CN3CCOCC3)c3ccc(Br)cc32)C(=O)N1CN1CCOCC1,-,-,BACTEC,H37Rv,12.5 µg/mL,inhibition,0%
COCCNC1CCN(CC2C(c3ccccc3)=Nc3c(C)cccc32)C1,-,-,-,-,-,MIC,3.12 µM
CC1COc2c(N3CCN(C)CC3)c(F)cc3c(=O)c(C(=O)O)cn1c23,-,-,-,-,-,MIC90,0.5–4 µg/mL
O=C(c1ccncc1)N(/N=C/c1ccc(Cl)cc1Cl)C(=O)c1cnccn1,-,-,-,9 isolates (sensitive),-,MIC,>16 µg/mL
Cc1nc2scc(-c3ccco3)c2c(=O)n1/N=C/c1cccs1,-,-,-,CNCTC MY331/88,-,MIC,50 µM
O=C(OCc1ccccc1)N1CCC[C@H]1c1cnc(-c2ccc([N+](=O)[O-])cc2)[nH]1,14 d,-,-,My 331/88,-,MIC,32 µM
CC1N=C(N)NC(c2ccco2)=C1C(=O)Nc1ccc(S(=O)(=O)c2ccc(NC(=O)C3=C(c4ccco4)NC(N)=NC3C)cc2)cc1,-,-,-,INH resistant,-,MIC,5.38 µM
CCOC(=O)c1ccc(NC(=O)C(CC(=O)Nc2ccc(OC)cc2)C(C)=O)cc1,-,-,-,H37Rv,30 µg/mL,inhibition,0%
COc1ccc(CNN(C(=O)c2ccncc2)C(=O)c2cnccn2)cc1,-,-,-,9 isolates (sensitive),-,MIC,0.125–0.25 µg/mL
Cl.c1cnc2c(c1)-n1cccc1C1(CCCCC1)NN2,-,-,BACTEC,H37Rv,-,MIC bound,>12.5 µg/mL
Cc1ccc2oc(=O)n(-c3ccc(F)cc3)c(=S)c2c1,21 d,-,-,My 331/88,-,MIC,8 µM
Cc1ccc(/C=N/n2c(C)nc3scc(-c4ccco4)c3c2=O)cc1,-,-,-,CNCTC MY331/88,-,MIC,42 µM
NC1=CC(=O)C(=O)c2cccnc21,-,-,-,H37Rv,6.25 µg/mL,inhibition,0%
Cc1cccc2c1N=C(c1ccccc1)C2CN1CCC(NS(C)(=O)=O)C1,-,-,-,Clinical isolate,-,MIC,3.3–12.5 µM
O=C(SCC1CS1)c1ccc(N=Nc2ccccc2)cc1,-,-,-,H37Rv,-,MIC,3.125 µg/mL
CC(=O)C(CC(=O)Nc1ccccc1Cl)C(=O)Nc1cccc2ccccc12,-,-,-,H37Rv,30 µg/mL,inhibition,0%
C1CCNCC1.S=C(S)N1CCCCC1,-,-,-,CS-R,-,MIC,3.1 µg/mL
Cc1nc2scc(-c3ccco3)c2c(=O)n1NC(=O)c1ccc([N+](=O)[O-])cc1,-,-,-,CNCTC MY331/88,-,MIC,6 µM
CO[C@H]1/C=C/O[C@@]2(C)Oc3c(C)c(O)c4c(O)c(c(/C=N/N5CCN(C6CCCC6)CC5)c(O)c4c3C2=O)NC(=O)/C(C)=C\C=C\[C@H](C)[C@H](O)[C@@H](C)[C@@H](O)[C@@H](C)[C@H](OC(C)=O)[C@@H]1C,-,-,-,29 isolates,-,MIC50,0.125 µg/mL
CCOC(=O)c1ccc(NC(=O)C(CC(=O)Nc2cccc(Cl)c2)C(C)=O)cc1,-,-,-,H37Rv,30 µg/mL,inhibition,0%
COc1c2c(c(CCC(=O)O)c3c1C=CC(C)(C)O3)OC(C)(C)C=C2,-,-,BACTEC,H37Rv,12.5 µg/mL,inhibition,-24%
COc1cc(C2=C(C(=O)Nc3ccc(S(=O)(=O)c4ccc(NC(=O)C5=C(c6cc(OC)c(OC)c(OC)c6)NC(N)=NC5C)cc4)cc3)C(C)N=C(N)N2)cc(OC)c1OC,-,-,-,INH resistant,-,MIC,4.5 µM
C[C@H]1COC2(CCN(c3nc(=O)c4cc(C(F)(F)F)cc([N+](=O)[O-])c4s3)CC2)O1,-,-,-,InhA OE,-,MIC,0.003–0.006 µM
CCc1ccc(C2=C/C(=C/c3cc4cc(Cl)ccc4nc3Cl)C(=O)O2)cc1,-,-,resazurin,H37Rv,-,EC50,>100 µg/mL
O=C(c1ccncc1)N(NCc1cccc([N+](=O)[O-])c1)C(=O)c1cnccn1,-,-,-,9 isolates (sensitive),-,MIC,0.25 µg/mL
CCOC(=O)c1ccc(NC(=O)C(CC(=O)Nc2ccccc2Cl)C(C)=O)cc1,-,-,-,H37Rv,30 µg/mL,inhibition,0%
CC[C@@H](C)[C@H](NC(=O)OCc1ccccc1)c1cnc(-c2ccccc2)[nH]1,14 d,-,-,My 331/88,-,MIC,32 µM
COc1ccc(C2=C(C(=O)Nc3ccc(S(=O)(=O)c4ccc(NC(=O)C5=C(c6ccc(OC)c(OC)c6)NC(N)=NC5C)cc4)cc3)C(C)N=C(N)N2)cc1OC,-,-,-,INH resistant,-,MIC,2.12 µM
CCOC(=O)C1=C(C)O/C(=C\c2ccco2)C1=O,-,-,BACTEC,H37Rv,-,MIC bound,>12.5 µg/mL
O=c1oc2ccc(F)cc2c(=S)n1-c1ccc(C(F)(F)F)cc1,21 d,-,-,My 331/88,-,MIC,4 µM
CC1N=C(N)NC(c2ccc(Cl)cc2)=C1C(=O)Nc1ccc(S(=O)(=O)c2ccc(NC(=O)C3=C(c4ccc(Cl)cc4)NC(N)=NC3C)cc2)cc1,-,-,-,INH resistant,-,MIC,3.2 µM
COCCN(C1CCN(CC2C(c3ccccc3)=[N+](C)c3c(C)cccc32)C1)S(C)(=O)=O,-,-,-,-,-,MIC,1.5 µM
CNC(=O)NC1ON=C(c2ccccc2)C1C(=O)NC,-,-,BACTEC,H37Rv,12.5 µg/mL,inhibition,0%
CC1(C)Nc2ccccc2C(=S)N1c1ccc(Cl)c(Cl)c1,-,-,-,My 331/88,-,MIC,>62.5 µg/mL
O=C(NCC(=O)SCC1CS1)OCc1ccccc1,-,-,-,H37Rv,-,MIC,25 µg/mL
COc1ccc2nc(Cl)c(/C=C3/C=C(c4ccccc4)OC3=O)cc2c1,-,-,resazurin,H37Rv,-,EC50,>100 µg/mL
Cc1nc2scc(-c3ccco3)c2c(=O)n1/N=C/C1CC1,-,-,-,CNCTC MY331/88,-,MIC,67 µM
CC(/C=C/c1ccccc1)=N\NC(=O)c1ccncc1,-,VERO,-,H37Rv,-,MIC,0.2 µg/mL
Fc1ccc2oc(=S)n(-c3ccc(Br)cc3)c(=S)c2c1,21 d,-,-,My 331/88,-,MIC,2 µM
C[C@H]1COC2(CCN(c3nc(=O)c4cc(C(F)(F)F)cc(C(=O)O)c4s3)CC2)O1,-,-,resazurin,NTB1,-,MIC99,25 µg/mL
CC(O)C(O)C(N)CC=O,-,-,BACTEC,H37Rv,-,MIC bound,>12.5 µg/mL
Cc1nc2ccc(Cl)cc2c(=S)n1-c1ccc(C(C)C)cc1,-,-,-,My 331/88,-,MIC,31 µg/mL
COCCN(C1CCN(CC2C(c3ccccc3)=Nc3c(C(C)C)cccc32)C1)S(C)(=O)=O,-,-,-,-,-,MIC,12.5 µM
COc1cc2oc3ccccc3c(=O)c2cc1CSc1ccccc1N,-,-,BACTEC,H37Rv,-,MIC,≥12.5 µg/mL
CC(C)N1CCN(c2nc(=O)c3cc(C(F)(F)F)cc(C(=O)O)c3s2)CC1,-,-,resazurin,H37Rv,-,MIC,0.0019 µg/mL
CC(=O)NC[C@H]1CN(c2ccc(N3CCOCC3)c(F)c2)C(=O)O1,-,-,-,10 isolates (isoniazid rifampin-resistant),-,MIC50,0.25 µg/mL
COc1ccc(C2=C/C(=C/c3cc4ccccc4nc3Cl)C(=O)O2)cc1,-,-,resazurin,H37Rv,-,EC50,>100 µg/mL
CC(=O)OCC(CSC(C)=O)SC(C)=O,-,-,-,H37Rv,-,MIC,0.8 µg/mL
COc1cccc2c1C(=O)c1c(O)c3c(c(O)c1C2=O)C[C@@](O)(C(=O)CSc1nnc(C)s1)C[C@@H]3OC1CC(N)C(O)C(C)O1.Cl,-,-,BACTEC,H37Rv,-,MIC bound,>12.5 µg/mL
CC(=O)C(CC(=O)Nc1cccc(C)c1)C(=O)Nc1cccc2ccccc12,-,-,-,H37Rv,30 µg/mL,inhibition,0%
CC(C)[C@H](NC(=O)OCc1ccccc1)c1cnc(-c2ccccc2)[nH]1,21 d,-,-,My 331/88,-,MIC,62.5 µM
CCOC(=O)c1ccc(NC(=O)C(CC(=O)Nc2ccc(Cl)cc2)C(C)=O)cc1,-,-,-,H37Rv,30 µg/mL,inhibition,0%
NNC(=O)c1ccncc1,-,-,-,H37Rv,-,MIC,0.73 µM
C=C1C(=O)OC2/C=C(/C)CC/C=C(/C)CC(OC(=O)/C(=C/CO)CO)C12,-,-,BACTEC,H37Rv,-,MIC,≥12.5 µg/mL
Fc1cccc(-n2c(=S)oc3ccc(Br)cc3c2=S)c1,21 d,-,-,My 331/88,-,MIC,4 µM
CCOC(=O)/C=C/C(=O)NNS(=O)(=O)CCC(N)C(=O)O,-,-,BACTEC,H37Rv,-,MIC bound,>12.5 µg/mL
Cc1nc2scc(-c3ccco3)c2c(=O)n1NC(=O)c1ccc(F)cc1,-,-,-,CNCTC MY331/88,-,MIC,15 µM
O=C1CC(N2C(=O)C3C4C=CC(CC4)C3C2=O)C(=O)N1,-,-,BACTEC,H37Rv,12.5 µg/mL,inhibition,6%
O=C1OC(c2ccccc2)=C/C1=C/c1cc2ccccc2nc1Cl,-,-,resazurin,H37Rv,-,EC50,58.29 µg/mL
Cc1cn([C@H]2C[C@H](O)[C@@H](CO)O2)c(=O)n2nnnc12,-,-,resazurin,H37Rv,6.25 µg/mL,inhibition,-18%
O=C(SCC1CS1)C(Cl)c1ccccc1,-,-,-,H37Rv,-,MIC,25 µg/mL
CC(=O)[C@H]1CC[C@H]2[C@@H]3C=CC4=CC(=O)CCC4(C)[C@@H]3CC[C@]12C,-,-,BACTEC,H37Rv,-,MIC bound,>12.5 µg/mL
Fc1ccc(-n2c(=S)oc3ccc(Br)cc3c2=S)cc1,14 d,-,-,My 331/88,-,MIC,1 µM